Compound potency records, mixed from different reports. Data source: NIAID ChemDB in PubChem.

Shared fields: whole-cell or culture tests; agent: Pneumocystis carinii; endpoint: EC50

ECn: concentration that inhibits the pathogen or its effect by n%.

smiles	conditions	method	cells	result
N=C(N)c1ccc(OCCCCCOc2ccc(C(=N)N)cc2)cc1		ATP	A549	0.3 µg/mL
Clc1ccc(COC(Cn2ccnc2)c2ccc(Cl)cc2Cl)c(Cl)c1	10 d		WI-38	<10 µg/mL
CN=C(N)c1ccc(N2CCN(c3ccc(C(N)=NC)cc3)CC2)cc1		ATP		1.53 µg/mL
NC(=NCC1CC1)c1ccc(N2CCCN(c3ccc(C(N)=NCC4CC4)cc3)CC2)cc1				<1 µM
CC(C(O)(Cn1cncn1)c1ccc(F)cc1F)S(C)(=O)=O	10 d		WI-38	>10 µg/mL
CCc1c(O)c(=O)ccn1CC	7 d		Human fibroblasts	<72 µM
NC(=NC1CC1)c1ccc(N2CCN(c3ccc(C(N)=NC4CC4)cc3)CC2)cc1		ATP		2.5 µg/mL
CC(C)(C)CN=C(N)c1ccc(N2CCCN(c3ccc(C(N)=NCC(C)(C)C)cc3)CC2)cc1				>1 µM
C(=C/COc1ccc(C2=NCCN2)cc1)/COc1ccc(C2=NCCN2)cc1				<0.2 µM
c1ccc(CNCCCNCCCCCCCNCCCNCc2ccccc2)cc1				3–30 µM
NC(=NCCO)c1ccc(N2CCCN(c3ccc(C(N)=NCCO)cc3)CC2)cc1				>1 µM
NC(N)=NC(=O)c1nc(Cl)c(N)nc1N				>100 µM
N=C(N)c1ccc(OC[C@@H](O)[C@@H](O)COc2ccc(C(=N)N)cc2)cc1				>0.2 µM
c1cc(N2CCN(c3ccc(C4=NCCN4)cc3)CC2)ccc1C1=NCCN1		ATP		1.71 µg/mL
N=C(N)c1ccc(OC/C=C\COc2ccc(C(=N)N)cc2)cc1				<0.2 µM
N/C(=N\O)c1ccc(N2CCN(c3ccc(/C(N)=N/O)cc3)CC2)cc1		ATP		3.3 µg/mL
OC(Cn1cncn1)(Cn1cncn1)c1ccc(F)cc1F	10 d		WI-38	>10 µg/mL
c1cc(N2CCN(c3ccc(C4=NCCCN4)cc3)CC2)ccc1C1=NCCCN1		ATP		1.44 µg/mL
COc1cc(N(C(C)=O)C(C)CCCN2C(=O)CN(C(C)=O)C2(C)C)c2ncccc2c1	72 h		A549	>50 µg/mL
O=[N+]([O-])c1ccc(N2CCN(c3ccc([N+](=O)[O-])cc3)CC2)cc1		ATP		34.1 µg/mL
CC(=O)N(O)CCCCCNC(=O)CCC(=O)N(O)CCCCCNC(=O)CCC(=O)N(O)CCCCCN.[Mg]	7 d		Human fibroblasts	<30 µM
CC(C)CCN=C(N)c1ccc(N2CCN(c3ccc(C(N)=NCCC(C)C)cc3)CC2)cc1		ATP		0.009 µg/mL
CC(=O)N(O)CCCCCNC(=O)CCC(=O)N(O)CCCCCNC(=O)CCC(=O)N(O)CCCCCN	7 d		Human fibroblasts	<30 µM
CCOC(=O)c1ccc(N2CCN(c3ccc(C(=O)OCC)cc3)CC2)cc1		ATP		>100 µg/mL
CC(C)CCN=C(N)c1ccc(N2CCN(c3ccc(C(N)=NCCC(C)C)cc3)CC2)cc1.Cl.Cl		ATP	A549	0.009 µg/mL

2 of the rows above, restated:

smiles	conditions	method	cells	result
N=C(N)c1ccc(OC/C=C\COc2ccc(C(=N)N)cc2)cc1				<0.2 µM
CC(C(O)(Cn1cncn1)c1ccc(F)cc1F)S(C)(=O)=O	10 d		WI-38	>10 µg/mL

Blank or dashed fields: not listed here. a–b is a range or a potency band. Neighbouring rows are from separate reports.